# Measurements taken from patent US20180344813A1, “ENGINEERED POLYPEPTIDES HAVING ENHANCED DURATION OF ACTION WITH REDUCED IMMUNOGENICITY” (priority 2016, published 2018).
# Tested on: CD3+ CD4+ T cells
substance,measurement,value
"tetanus toxoid [TT, reference compound]",number of responding individuals,49
